# Assay results taken from publication PMC9960827, “Cloning and Characterization of Trypanosoma congolense and T. vivax Nucleoside Transporters Reveal the Potential of P1-Type Carriers for the Discovery of Broad-Spectrum Nucleoside-Based Therapeutics against Animal African Trypanosomiasis” (International Journal of Molecular Sciences, 2023).
# Experiments:
# L. mexicana SUPKO = type: cell-based, Leishmania mexicana; conditions: Resistance Factor = EC50(SUPKO)/EC50(Cas9)
# Protocol: EC50 values were determined by plotting to an equation for a sigmoid curve with variable slope (GraphPad Prism 8). All values were the average of at least three independent determinations on different days.
# T. brucei TbAT1-KO = conditions: cited from earlier work
structure (smiles),measurement,setting,value
"Nc1ncnc2c1ccn2[C@@H]1O[C@H](CO)[C@@H](O)[C@H]1O [Tubercidin, 7-deazaadenosine]",SUPKO RF (Cas9),L. mexicana SUPKO,>230
same,resistance factor in TbAT1-KO compared to the wild type,T. brucei TbAT1-KO,28.7
same,resistance of the TbAT1-KO strain,T. brucei TbAT1-KO,77 fold
